Source: patent US7399782B2, “Polyether brevetoxin derivatives as a treatment for cystic fibrosis, mucociliary dysfunction, and pulmonary diseases” (dated 2008)

Tests used:
conscious sheep = experiment: Tracheal mucus velocity (TMV) in conscious sheep
sodium channels = details: cited from earlier work

In the case of β-Naphthoyl-PbTx-3, the “effect on tracheal mucus velocity (TMV)” value (conscious sheep; FIG. 2, 10 pg dose (n=2), versus control (vehicle)) is listed as “about the same as control”, the “effect on tracheal mucus velocity (TMV)” value (conscious sheep; FIG. 2, 100 pg dose (n=4)) is listed as “rapidly increase TMV” and the “antagonism of the native toxin in channel activation” value (sodium channels; Purkerson-Parker 2000) is listed as “effectively antagonizes the actions of the native toxin in channel activation”. For the same substance, the “effect on sodium channel openings” value (sodium channels; Purkerson-Parker 2000) was “reduces sodium channel openings”, the “effect on brevetoxin-induced opening of sodium channels” value (sodium channels) was “blocks brevetoxin-induced opening of sodium channels” and the “opening of sodium channels in the steady state” value (sodium channels; steady state) was “does not elicit opening of sodium channels in the steady state”.
